Compound potency records, mixed from different reports. Data source: NIAID ChemDB in PubChem.

Shared fields: enzyme or target tests; agent: HIV-1; target: Integrase; measure: IC50

ICn is the concentration giving n% inhibition. a–b is a range or a potency band. An empty or dashed field is not shown. Rows are shuffled and stem from different studies.

smiles	read by	mutations	strain or isolate	result
O=C(O)C(=O)/C=C(\O)c1nc2cncnc2n1Cc1ccccc1	3′ processing	INTG		1000 µM
Nc1cc(S(=O)(=O)c2ccc(O)c(N)c2)ccc1O	strand transfer			4.9 µM
O=C(/C=C(\O)c1ccccc1)c1ncn[nH]1	3′ processing			>100 µM
Cc1cn([C@H]2C[C@H](N=[N+]=[N-])[C@@H](COP(=O)(O)O)O2)c(=O)[nH]c1=O	3′ processing / substrate cleavage			200 µM
O=C(O)C(=O)/C=C(\O)c1c[nH]c2cccc(O)c12	AlphaScreen			35 µM
Cc1[nH]cnc1C(=O)NNC1=Nc2ccc(Br)cc2C(c2ccccc2Cl)=NC1	strand transfer			5 µM
C/C=C/C=C/[C@H]1C(C)=CC2C[C@@H](C)CC[C@@H]2[C@@]1(C)/C(O)=C1/C(=O)[C@@H](CO)N(C)C1=O	strand transfer			7–15 µM
COc1ccc(-c2oc3cc(OC)c(OC)c(O)c3c(=O)c2O)cc1O	3′ processing			>250 µM
CCOC(=O)C1C/C(=C\c2ccc(O)c(O)c2)C(=O)/C(=C/c2ccc(O)c(O)c2)C1	strand transfer			0.4 µM
O=[N+]([O-])c1cccc(S(=O)(=O)c2cccc([N+](=O)[O-])c2)c1	strand transfer			>100 µM
Nc1ccn([C@H]2C[C@H](OP(=O)(O)OC[C@H]3OC[C@@H](n4ccc(=O)[nH]c4=O)[C@@H]3O)[C@@H](COP(=O)(O)O)O2)c(=O)n1	3′ processing			164 µM
COc1c(OC)c(OC)c(-c2cc(=O)c3c(OC)c(OC)c(OC)c(OC)c3o2)c(OC)c1OC	3′ processing			>250 µM
CC(C)c1c(C(=O)Nc2ccccc2)c(-c2ccccc2)c(-c2ccc(F)cc2)n1CC[C@@H](O)C[C@@H](O)CC(=O)O	AlphaScreen			8.9 µM
Nc1ccn([C@@H]2CO[C@H](COP(=O)(O)O[C@H]3[C@H](n4cnc5c(N)ncnc54)CO[C@@H]3COP(=O)(O)O)[C@H]2O)c(=O)n1	strand transfer			>1000 µM
O=C1O/C(=C(/C(=O)O)c2ccc(O)cc2)C(O)=C1c1ccc(O)c(O)c1	absorbance			1.1 µM
O=C1/C(=C/c2cc(O)c(O)c(O)c2)CN(Cc2ccccc2)C/C1=C\c1cc(O)c(O)c(O)c1	3′ processing			0.7 µM
O=CCc1c(-c2ccccc2)c2cc(Cl)ccc2[nH]c1=O	AlphaScreen			11.65 µM
COc1ccc(OC)c2c1c(/C(O)=C/C(=O)C(=O)O)cn2Cc1ccc(F)cc1	strand transfer			0.03 µM
Cc1cc(S(=O)(=O)/N=C(\NN)Nc2ccc(Cl)cc2)c(S)cc1Cl				2.7 µM
C/C=C/C=C/[C@H]1C(C)=C[C@H]2C[C@@H](C)CC[C@@H]2[C@@]1(C)/C(O)=C1/C(=O)[C@H](CO)N(C)C1=O	strand transfer			7–15 µM
Nc1ccn([C@@H]2CO[C@H](COP(=O)(O)O[C@H]3C[C@H](n4cnc5c(N)ncnc54)O[C@@H]3COP(=O)(O)O)[C@H]2O)c(=O)n1	3′ processing			>1000 µM
Nc1ncnc(N)c1NC(=O)c1ccc(Cl)c([N+](=O)[O-])c1	3′ processing			>250 µM
O=S(=O)(Nc1nnc2n1-c1ccccc1CC2)c1ccc(Cl)cc1S				13.8 µM
C[C@H](OC(=O)/C=C/c1ccc(O)c(O)c1)[C@H](C)OC(=O)/C=C/c1ccc(O)c(O)c1	3′ processing			38.4 µM
Cc1cc(S(=O)(=O)Nc2nc(N)nc3nc4ccccc4n23)c(S)cc1Cl				7.1 µM
O=c1cc(-c2c(O)cc(O)cc2O)oc2cc(O)cc(O)c12	3′ processing			199 µM
O=C(CCCN(C1CCCCC1)C1CCCCC1)Nc1ccc(S(=O)(=O)c2ccc(NC(=O)CCCN(C3CCCCC3)C3CCCCC3)cc2)cc1	3′ processing			>100 µM
CNc1c(C#N)c(N)nc2c(N=Nc3ccc(Br)cc3)c(N)nn12	3′ processing			>250 µM
O=[N+]([O-])c1ccc(S(=O)(=O)c2ccc([N+](=O)[O-])cc2C(F)(F)F)c(C(F)(F)F)c1	3′ processing			>100 µM
O=C(/C=C/c1ccc(O)c(O)c1)O[C@@H]1CC(O)(C(=O)O)C[C@@H](OC(=O)/C=C/c2ccc(O)c(O)c2)C1O			LAI	0.3 µM
O=C1/C(=C\c2cc(O)c(O)c(O)c2)Cc2ccccc21	3′ processing			0.3 µM
Nc1ccn([C@@H]2O[C@H](COP(=O)(O)O[C@H]3[C@H](n4cnc5c(N)ncnc54)CO[C@@H]3COP(=O)(O)O)[C@@H](O)[C@H]2O)c(=O)n1	3′ processing			>1000 µM
O=C(/C=C(\O)c1cc(C(=O)O)n(Cc2ccccc2)c1)c1ncn[nH]1	strand transfer			1 µg/mL
O=C(/C=C/c1ccc(O)c(O)c1)NCCOC(=O)/C=C/c1ccc(O)c(O)c1	3′ processing			27.5 µM
O=C1C(O)=C(c2ccccc2C(=O)O)C(=O)C(O)=C1c1ccccc1C(=O)O	3′ processing			23 µM
O=C(O)c1cc(-c2ccc(F)cc2F)ccc1O	AlphaScreen			17.71 µM
Cc1cc(S(=O)(=O)Nc2nnc3cc(C(F)(F)F)cc(C)n23)c(S)cc1Cl				11.9 µM
O=C(CCl)Nc1ccc(S(=O)(=O)c2ccc(NC(=O)CCl)cc2)cc1	3′ processing			46.5 µM
CC1=C(CC(=O)O)c2cc(F)ccc2/C1=C\c1ccc(S(C)=O)cc1	AlphaScreen			13.85 µM
CC1(C)OC(=O)C2(C(=O)O1)[C@@H](c1ccco1)CC(=O)C[C@H]2c1ccco1	strand transfer			17.6 µM
COc1cc(/C=C/c2ccc(OC)c(OC)c2)oc(=O)c1	strand transfer			>100 µM
O=C=Nc1cccc(S(=O)(=O)c2cccc(N=C=O)c2)c1	3′ processing			100 µM
O=[N+]([O-])c1cc(S(=O)(=O)c2ccc(F)c([N+](=O)[O-])c2)ccc1F	3′ processing			40 µM
COc1cc(-c2ccc(O)cc2)c(OC)c(O)c1-c1ccc(O)cc1	absorbance			17.7 µM

For reference, 4 entries again:

Nc1ccn([C@@H]2CO[C@H](COP(=O)(O)O[C@H]3C[C@H](n4cnc5c(N)ncnc54)O[C@@H]3COP(=O)(O)O)[C@H]2O)c(=O)n1 ; read by: 3′ processing ; result: >1000 µM
CNc1c(C#N)c(N)nc2c(N=Nc3ccc(Br)cc3)c(N)nn12 ; read by: 3′ processing ; result: >250 µM
Cc1cc(S(=O)(=O)/N=C(\NN)Nc2ccc(Cl)cc2)c(S)cc1Cl ; result: 2.7 µM
CCOC(=O)C1C/C(=C\c2ccc(O)c(O)c2)C(=O)/C(=C/c2ccc(O)c(O)c2)C1 ; read by: strand transfer ; result: 0.4 µM